The values that follow come from paper PMC7002343.

For some assays here: No signal at the amounts used counts as a negative. Where a protein sequence is shown, tags need not be part of it.

What all share (assay): EMSA
Data set [1] addresses T1, 6xHis-EspM(MT) (Mycobacterium tuberculosis Erdman) (UniProt P96214).
T1 sequence (looked up): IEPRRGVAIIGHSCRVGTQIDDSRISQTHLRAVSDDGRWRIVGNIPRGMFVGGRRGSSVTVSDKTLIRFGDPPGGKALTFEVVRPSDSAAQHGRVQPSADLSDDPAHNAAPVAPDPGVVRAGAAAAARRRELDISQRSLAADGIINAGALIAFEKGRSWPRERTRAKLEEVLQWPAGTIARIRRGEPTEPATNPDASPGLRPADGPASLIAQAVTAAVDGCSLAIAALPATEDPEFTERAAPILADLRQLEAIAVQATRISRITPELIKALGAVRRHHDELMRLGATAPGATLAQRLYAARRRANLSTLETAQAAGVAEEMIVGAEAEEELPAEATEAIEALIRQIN
Conditions: recombinant protein; residues 46-392; protein details: 6xHis; probe letters rebuilt from the primers and the genome.

Data set [2] deals with T2, 6xHis-EspM(CT) (Mycobacterium marinum M (ATCC BAA-535)) (UniProt B2HMS6).
T2 sequence (looked up): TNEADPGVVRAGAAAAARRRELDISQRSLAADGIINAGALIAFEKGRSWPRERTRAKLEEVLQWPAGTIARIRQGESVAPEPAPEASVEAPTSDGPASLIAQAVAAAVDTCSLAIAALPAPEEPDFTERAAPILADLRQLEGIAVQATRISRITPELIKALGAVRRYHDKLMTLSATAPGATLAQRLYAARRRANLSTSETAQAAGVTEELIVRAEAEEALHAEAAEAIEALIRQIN
Conditions: EspM EMSA: 10 mM Tris-HCl pH 8.0, 40 mM KCl, 2.5 mM DTT, 0.25% Tween-20, 0.02 mg/mL salmon sperm DNA (listed as 0.5x binding buffer), ~70 ng probe, 20-25 min at 4 C; recombinant protein; residues 149-385; protein details: 6xHis; probe letters rebuilt from the primers and the genome. A general note: Mobility shift assays separate free from complexed probe on a gel.

In data set [3] the test system is T3, WhiB6(MM)-6xHis (Mycobacterium marinum M (ATCC BAA-535)).
T3 sequence (looked up): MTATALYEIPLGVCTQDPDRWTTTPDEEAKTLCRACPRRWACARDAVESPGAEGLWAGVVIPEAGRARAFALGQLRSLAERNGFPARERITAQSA
Conditions: WhiB6 buffer: 40 mM HEPES pH 7.5, 50 mM KCl, 2 mM MgCl2, 0.01 mM EDTA; EspM EMSA: 10 mM Tris-HCl pH 8.0, 40 mM KCl, 2.5 mM DTT, 0.25% Tween-20, 0.02 mg/mL salmon sperm DNA (listed as 0.5x binding buffer), ~70 ng probe, 20-25 min at 4 C; recombinant protein; residues 1-95; protein details: C-terminal 6xHis; probe letters rebuilt from the primers and the genome.

Data set [4] addresses T4, 6xHis-EspM(MM) (Mycobacterium marinum M (ATCC BAA-535)) (UniProt B2HMS6).
T4 sequence (looked up): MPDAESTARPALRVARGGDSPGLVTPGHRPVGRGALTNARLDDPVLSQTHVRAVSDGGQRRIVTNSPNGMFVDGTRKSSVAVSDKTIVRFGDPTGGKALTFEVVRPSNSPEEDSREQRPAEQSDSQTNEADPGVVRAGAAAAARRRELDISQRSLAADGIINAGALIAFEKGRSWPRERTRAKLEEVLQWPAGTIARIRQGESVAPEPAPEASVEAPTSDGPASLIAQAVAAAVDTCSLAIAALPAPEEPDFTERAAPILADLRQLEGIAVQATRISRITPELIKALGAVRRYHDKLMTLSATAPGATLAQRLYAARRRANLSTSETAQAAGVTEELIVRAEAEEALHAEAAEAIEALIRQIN
Conditions: EspM EMSA: 10 mM Tris-HCl pH 8.0, 40 mM KCl, 2.5 mM DTT, 0.25% Tween-20, 0.02 mg/mL salmon sperm DNA (listed as 0.5x binding buffer), ~70 ng probe, 20-25 min at 4 C; recombinant protein; residues 23-385; protein details: N-terminal 6xHis; probe letters rebuilt from the primers and the genome.

In data set [5] the target is T5, 6xHis-EspM(NT) (Mycobacterium marinum M (ATCC BAA-535)) (UniProt B2HMS6).
T5 sequence (looked up): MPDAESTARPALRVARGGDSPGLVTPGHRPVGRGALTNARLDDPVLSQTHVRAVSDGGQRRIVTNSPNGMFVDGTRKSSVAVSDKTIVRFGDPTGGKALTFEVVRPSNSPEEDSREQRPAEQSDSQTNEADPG
Conditions: EspM EMSA: 10 mM Tris-HCl pH 8.0, 40 mM KCl, 2.5 mM DTT, 0.25% Tween-20, 0.02 mg/mL salmon sperm DNA (listed as 0.5x binding buffer), ~70 ng probe, 20-25 min at 4 C; recombinant protein; residues 23-155; protein details: 6xHis; probe letters rebuilt from the primers and the genome.

As to “CCTCTGCCTGCCTAGCGGTGCTGCGGCTCCGGTTCGGCGAGCTCCGAGCTCTAGTGCGCGCACCGCCGAGTACCAGGGCATAGATCCTGTTAATCAGCTGTGTATCTGGCCTCGCCGGCGCGTATCCGACCCCTTCGGGCAGATCTTCCAGGAAAAGTGTTCTGACATGCGACAGTTCAGGTGTGAAGTGAACTGTAGCGGCAGTTCGGTTTGGCTAGGAAACTATTTCCATAGCGGGCCGTCGCGTCGCTAGATCCAAAATGTAGCGAAGTCATAGCAGTAGAAGGGTGCAACGGTTAGGATGGCGGGCGAGCGGAAAGTCTGCCCACCGTCCCGGCTAGTACCCGCGAATAAGGGATCAACGCAGATGTCTAAAGCAGGGTCGACTGTCGGACCGGCGCCGCTGGTCGCGTGCAGCGGCGGCACATCAGACGTGATTGAGCCCCGTCGCGGTGTCGCGATCATTGGCCACTCGTGCCGAGTCGGCACCCAGATCGACGATTCTCGAATCTCTCAGACACATCTGCGAG (double strand) [whiB6(MT) promoter EMSA probe]”, in data set [1], the binding result is “binds”.
For “GTTGCAGGTTCGTAACCTCTGCCCGAGGATCGTATAGCACTAACCGTCGCAGTGCAACAGTTCCCGATGCAGGGCCGCACACCCTCCTGCTACAACTTCGCTGCGCGATGGGCCATGATAAGCATCTAACCTGGCATAACCAGCGGTAATTAGCTGTCAATCGGCTGGGTGACACGGCGCTCCGCCAACCCCGACGCACACCCTTCCGGACAGAAACTGTTCCACTGCGCAATGCTTCGGGGTAGGATCAAACGTAGCGGTGGCCCGGTTTAACCAGACAACGGTCGCTTCGGAACCCCGCTGGATGTCGTTCAAGAAACGTAGCGAAGGCATACCAATGGAAGGGTGCAACGGTTAGGATGTTGGTCAGCGGAACGCGCGCCTTGCCACCCGCCTCAGTAGCCGCGAGCGAGGAATCGACGTACATGCCCGACGCCGAATCGACTGCTCGGCCGGCCCTGCGAGTCGCCCGTGGCGGCGACTCACCGGGCCTGGTAACGCCCGGTCACCGACCCGTCGGCCGCGGCGCGCTGACCAACGCACGACTGGATGATCCCGTGTTATC (double strand) [whiB6 promoter EMSA probe (whiB6-espM intergenic)]”, the binding result in data set [2] is “binds”; in data set [3], “binds”; in data set [4], “binds”; in data set [5] it was “no binding”.
